Laboratory results: PubChem BioAssay AID624099 (ICCB-Longwood, 2012)
The deposit covers about 21,000 reagents; this is a part drawn at random. In the full data, 497 (2.4%) got an active call. 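Higher z means weaker E2 silencing; only reporter increases were scored, and knock-downs that hurt cell survival may mask genuine repressor factors.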 The numbers tell different reagents against one gene apart.

Aim: 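Host factors E2 relies on to silence an HPV18 LCR reporter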 (primary screen)
Cell system: human C33A cervical carcinoma cells (HPV-negative) stably expressing BPV1 E2 and an HPV18 LCR luciferase reporter
Knock-down reagent: siRNA pool against human genes, 40 nM
Timing: 72 h
Read-out: 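Per-well luciferase luminescence, z-scored on each plate against the plate mean and SD with control wells left out, then averaged across three replicate plates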
Direction: mean z-score and z-score: higher = stronger reporter signal, weaker E2 silencing
Active means: 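Hit if mean z-score reaches 2 and two or more of three replicate z-scores also reach 2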

The first 4 entries as a preview:
Target gene | pool no. | mean z-score | z-score, replicate A | z-score, replicate B | z-score, replicate C | activity call
COA1 | 1 | 0.65 | 0.56 | 0.64 | 0.74 | inactive
ZDHHC5 | 1 | 0.22 | -0.04 | 0.39 | 0.31 | inactive
NOXO1 | 1 | -0.75 | -0.8 | -0.74 | -0.69 | inactive
BCL2L10 | 1 | 0.76 | 0.92 | 0.62 | 0.73 | inactive

The listing, repeating the preview:
Target gene | pool no. | mean z-score | z-score, replicate A | z-score, replicate B | z-score, replicate C | activity call
COA1 | 1 | 0.65 | 0.56 | 0.64 | 0.74 | inactive
ZDHHC5 | 1 | 0.22 | -0.04 | 0.39 | 0.31 | inactive
NOXO1 | 1 | -0.75 | -0.8 | -0.74 | -0.69 | inactive
BCL2L10 | 1 | 0.76 | 0.92 | 0.62 | 0.73 | inactive
LOC286404 (retired record) | 1 | 0.75 | 0.99 | 0.72 | 0.55 | inactive
LOC388709 (retired record) | 1 | -1.18 | -1.34 | -0.98 | -1.21 | inactive
ARL15 | 1 | -0.18 | -0.17 | 0 | -0.38 | inactive
LOC391426 (retired record) | 1 | 0.82 | 0.57 | 1.08 | 0.81 | inactive
LRBA | 1 | 0.02 | 0.18 | -0.15 | 0.02 | inactive
KCNC3 | 1 | 0.55 | 0.83 | 0.43 | 0.39 | inactive
RBM8A | 1 | 0.39 | 0.19 | 0.6 | 0.39 | inactive
LUC7L | 1 | 0.1 | -0.17 | 0.23 | 0.24 | inactive
ACTG2 | 1 | 0.11 | -0.04 | -0.1 | 0.46 | inactive
SPIN3 | 1 | -0.05 | -0.47 | 0.05 | 0.28 | inactive
TMTC2 | 1 | 0.55 | 0.94 | 0.43 | 0.28 | inactive
RAB36 | 1 | -1.17 | -1.23 | -1.26 | -1.03 | inactive
PITHD1 | 1 | 1.21 | 1.28 | 1.08 | 1.26 | inactive
CNTNAP1 | 1 | 0.79 | 0.92 | 0.8 | 0.66 | inactive
PPIAP8 | 1 | 0.43 | 0.47 | 0.48 | 0.35 | inactive
CLDND2 | 1 | 0.96 | 0.92 | 1.2 | 0.75 | inactive
DLGAP4 | 1 | 0.24 | 0.27 | 0.04 | 0.42 | inactive
MRGPRF | 1 | 0.16 | 0.07 | -0.29 | 0.71 | inactive
LOC402463 (retired record) | 1 | -0.76 | -0.73 | -0.92 | -0.62 | inactive
LOC402463 (retired record) | 2 | -0.18 | -0.2 | -0.27 | -0.06 | inactive
CLEC14A | 1 | 0.31 | 0.38 | 0.52 | 0.03 | inactive
IGDCC4 | 1 | -0.08 | -0.4 | -0.07 | 0.25 | inactive
CIMAP1D | 1 | -0.03 | 0.11 | -0.1 | -0.11 | inactive
ACBD6 | 1 | -1.5 | -1.45 | -1.41 | -1.64 | inactive
ANXA7 | 1 | -0.62 | -0.59 | -0.73 | -0.55 | inactive
CCDC47 | 1 | 0.24 | 0.29 | 0.29 | 0.15 | inactive
CD164L2 | 1 | -0.54 | -0.58 | -0.3 | -0.76 | inactive
GNAI1 | 1 | 1.95 | 1.9 | 2.14 | 1.8 | inactive
C12orf42 | 1 | 1.57 | 1.57 | 1.55 | 1.58 | inactive
QRFPR | 1 | 0.78 | 0.68 | 0.96 | 0.71 | inactive
COIL | 1 | 0.07 | -0.18 | 0.08 | 0.31 | inactive
MTREX | 1 | -0.84 | -0.86 | -1.04 | -0.61 | inactive
RNF40 | 1 | -0.31 | -0.16 | -0.39 | -0.38 | inactive
TAFA4 | 1 | 0.5 | 0.2 | 0.13 | 1.16 | inactive
KDM1B | 1 | -0.09 | -0.56 | 0.27 | 0 | inactive
TAGLN | 1 | 1.53 | 1.5 | 1.7 | 1.38 | inactive
ZNF268 | 1 | -0.41 | -0.17 | -0.51 | -0.54 | inactive
SETD6 | 1 | -0.04 | -0.03 | 0.44 | -0.52 | inactive
LOC402530 (retired record) | 1 | 1.69 | 1.72 | 1.55 | 1.79 | inactive
KRT32 | 1 | 0.61 | 0.29 | 0.79 | 0.76 | inactive
GLIPR1L2 | 1 | 0.23 | 0.47 | 0.07 | 0.16 | inactive
C9orf163 | 1 | -1.1 | -0.51 | -1.54 | -1.23 | inactive
HM13 | 1 | 1.91 | 1.71 | 1.66 | 2.35 | inactive
INSIG2 | 1 | -0.83 | -1 | -0.77 | -0.71 | inactive
SOX13 | 1 | -0.84 | -1.05 | -0.7 | -0.77 | inactive
PLPP2 | 1 | -1.42 | -1.26 | -1.56 | -1.43 | inactive
RXFP3 | 1 | -0.5 | -0.46 | -0.9 | -0.14 | inactive
TEPSIN | 1 | 0.87 | 0.71 | 0.6 | 1.3 | inactive
MCM2 | 1 | -0.08 | -0.24 | -0.18 | 0.18 | inactive
TSPAN14 | 1 | -0.69 | -0.75 | -0.78 | -0.54 | inactive
HIVEP1 | 1 | 0.47 | 0.45 | 0.68 | 0.3 | inactive
ITGA7 | 1 | -0.47 | -0.45 | -0.41 | -0.56 | inactive
MEF2A | 1 | -0.52 | -0.53 | -0.67 | -0.37 | inactive
UAP1L1 | 1 | -0.56 | -0.77 | -0.3 | -0.62 | inactive
ABCF1 | 1 | 0.42 | 0.18 | 0.1 | 0.97 | inactive
ARSH | 1 | -1.15 | -1.27 | -1.09 | -1.09 | inactive
TRAK2 | 1 | -0.96 | -1.07 | -1.01 | -0.8 | inactive
S100A12 | 1 | -0.76 | -0.97 | -0.69 | -0.62 | inactive
TBX4 | 1 | -0.46 | -0.57 | -0.5 | -0.3 | inactive
TMEM82 | 1 | -0.6 | 0 | -0.79 | -1.03 | inactive
LCLAT1 | 1 | 0.29 | 0.47 | 0.35 | 0.05 | inactive
AMER2 | 1 | 2.63 | 2.84 | 2.1 | 2.95 | active
PTGS1 | 1 | -0.9 | -0.94 | -1.12 | -0.64 | inactive
ID1 | 1 | -0.31 | -0.67 | -0.09 | -0.17 | inactive
ABR | 1 | -0.05 | 0.17 | -0.32 | 0 | inactive
ANKRD39 | 1 | -1.06 | -0.6 | -1.31 | -1.27 | inactive
UVRAG | 1 | -0.32 | -0.13 | -0.36 | -0.48 | inactive
UBE2D2 | 1 | -0.26 | -0.39 | -0.4 | 0.02 | inactive
SCARB1 | 1 | -0.29 | -0.23 | -0.27 | -0.37 | inactive
